Experimental data reported in patent US9315482B2, “Derivatives useful as antiviral agents” (priority 2010, dated 2016).

Legend:
[1] = tested on: chikungunya virus (CHIKV); conditions: Example 37, HEK-293T cells, Chik-ren, 24 hours, FIG. 11A
RNA viruses = assay: Antiviral activity against nine RNA viruses (summary); conditions: for in vitro replication of all tested RNA viruses: nine RNA viruses, immunostaining, flow cytometry, virus titers or luciferase virus (FIGS. 1-6); for cell-type specificity of antiviral activity: observed in HEK-293T, MRC5, HuH-7, Jeg3, HeLa and A549 cell lines and human peripheral blood lymphocytes

| Molecule | in vitro replication of chikungunya (CHIKV) (renilla activity) [1] | in vitro replication of all tested RNA viruses (RNA viruses) | cell-type specificity of antiviral activity (RNA viruses) |
| --- | --- | --- | --- |
| C=Cc1cccc(-c2coc3c2C(=O)CCC3)c1 [GAC50, 3-(3-ethenylphenyl)-6,7-dihydro-5H-benzofuran-4-one] | blocked | – | – |
| O=C1CCCc2occ(-c3cccc(Cl)c3)c21 [Example 129-G03, 3-(3-chlorophenyl)-6,7-dihydro-5H-benzofuran-4-one] | blocked | blocked | not cell-type specific |
| 3-(1H-5-chloroindol-3-yl)-2-nitro-2,3-dihydrofuro[3,2-c]chromen-4-one [DD771] | blocked | – | – |
| O=c1oc2ccccc2c2c1C(c1c[nH]c3ccccc13)C([N+](=O)[O-])O2 (stereo not shown) [Example 123-G05, 3-(1H-Indol-3-yl)-2-nitro-2,3-dihydrofuro[3,2-c]chromen-4-one] | – | blocked | not cell-type specific |
